Test system: HIV-1
Settings: after administration of several grams of the drug

dextrin 2-sulphate was tested. Which “clinical or biochemical toxicity” value did it give?
Its value is “No clinical or biochemical toxicity”.

From patent US6689764B1, “Treatment of angiogenesis dependent conditions with dextrin sulphate” (priority 1999, dated 2004)
